# From patent US20160264649A1
# B1: 5343_B08 (PGT-135) (antibody, V domains shown)
# VH: QLQMQESGPGLVKPSETLSLSCTVSGDSIRGGEWGDKDYHWGWVRHSAGKGLEWIGSIHWRGTTHYKESLRRRVSMSIDTSRNWFSLRLASVTAADTAVYFCARHRHHDVFMLVPIAGWFDVWGPGVQVTVSS
# VL: EIVMTQSPDTLSVSPGETVTLSCRASQNINKNLAWYQYKPGQSPRLVIFETYSKIAAFPARFVASGSGTEFTLTINNMQSEDVAVYYCQQYEEWPRTFGQGTKVDIK
# B2: 5136_H01 (PGT-131) (antibody, V domains shown)
# VH: QVQLQESGPGLVKPSETLSLTCTVSGDSINTGHHYWGWVRQVPGKGPEWIAHIHYNTAVLHNPALKSRVTISIFTLKNLITLSLSNVTAADTAVYFCVRSGGDILYYIEWQKPHWFYPWGPGILVTVSS
# VL: QSALTQPPSASGSLGQSLTISCSGTGSDIGSWNFVSWYQQFPGRAPNLIIFEVNRRRSGVPDRFSGSKSGNTASLTVSGLRSEDEAEYFCSSLSGRWDIVFGGGTKVTVL
# B3: 5329_C19 (PGT-136) (antibody, V domains shown)
# VH: QLQLQESGPGLVKPSETLSLTCTVSGGSMRGTDWGENDFHYGWIRQSSAKGLEWIGSIHWRGRTTHYKTSFRSRATLSIDTSNNRFSLTFSFVTAADTAVYYCARHKYHDIFRVVPVAGWFDPWGQGLLVTVSS
# VL: EIVMTQSPPTLSVSPGETATLSCRASQNVKNNLAWYQLKPGQAPRLLIFDASSRAGGIPDRFSGSGYGTDFTLTVNSVQSEDFGDYFCQQYEEWPRTFGQGTKVDIK
# Tests used:
# Experiment in all cases: cell-based or functional assay
# [1] = biological target: HIV-1 Env of the clade AG viruses (n=10) of the cross-clade 162-pseudovirus panel
# [2] = biological target: HIV-1 Env of the 162-pseudovirus panel representing all major circulating HIV-1 subtypes (HIV-1)
# [3] = biological target: HIV-1 Env of the clade G viruses (n=15) of the cross-clade 162-pseudovirus panel
# [4] = biological target: HIV-1 Env of the clade AE viruses (n=10) of the cross-clade 162-pseudovirus panel
# [5] = biological target: HIV-1 Env of the clade F viruses (n=15) of the cross-clade 162-pseudovirus panel
# [6] = biological target: HIV-1 Env of the clade D viruses (n=25) of the cross-clade 162-pseudovirus panel
# [7] = biological target: HIV-1 Env of all viruses (n=162) of the cross-clade 162-pseudovirus panel
# [8] = biological target: HIV-1 Env of the clade C viruses (n=27) of the cross-clade 162-pseudovirus panel
# [9] = biological target: HIV-1 Env of the clade A viruses (n=26) of the cross-clade 162-pseudovirus panel
# [10] = biological target: HIV-1 Env of the clade B viruses (n=31) of the cross-clade 162-pseudovirus panel
Binder,Median IC50 (µg/ml) against all viruses [1] [µg/mL],Median IC50 (µg/ml) against viruses neutralized with an IC50 <50 µg/ml [1] [µg/mL],Percent viruses neutralized with an IC50 <50 µg/ml [1] [%],Median IC50 (µg/ml) against viruses neutralized with an IC50 <50 µg/ml [2] [µg/mL],"Percent viruses neutralized, IC50 < 0.1 µg/ml [2] [%]","Percent viruses neutralized, IC50 < 1 µg/ml [2] [%]","Percent viruses neutralized, IC50 < 50 µg/ml [2] [%]",Median IC50 (µg/ml) against all viruses [3] [µg/mL],Median IC50 (µg/ml) against viruses neutralized with an IC50 <50 µg/ml [3] [µg/mL],Percent viruses neutralized with an IC50 <50 µg/ml [3] [%],Median IC50 (µg/ml) against all viruses [4] [µg/mL],Percent viruses neutralized with an IC50 <50 µg/ml [4] [%],Median IC50 (µg/ml) against all viruses [5] [µg/mL],Median IC50 (µg/ml) against viruses neutralized with an IC50 <50 µg/ml [5] [µg/mL],Percent viruses neutralized with an IC50 <50 µg/ml [5] [%],Median IC50 (µg/ml) against all viruses [6] [µg/mL],Median IC50 (µg/ml) against viruses neutralized with an IC50 <50 µg/ml [6] [µg/mL],Percent viruses neutralized with an IC50 <50 µg/ml [6] [%],Median IC50 (µg/ml) against all viruses [7] [µg/mL],Median IC50 (µg/ml) against viruses neutralized with an IC50 <50 µg/ml [7] [µg/mL],further results
B1,50,27.4,20,0.17,13,23,33,50,0.14,40,50,0,7.79,0.21,60,50,1.09,24,50,0.17,Percent viruses neutralized with an IC50 <50 µg/ml [7]: 33%; Median IC50 (µg/ml) against all viruses [8]: 50 µg/mL; Median IC50 (µg/ml) against viruses neutralized with an IC50 <50 µg/ml [8]: 0.05 µg/mL; Percent viruses neutralized with an IC50 <50 µg/ml [8]: 37%; Median IC50 (µg/ml) against all viruses [9]: 50 µg/mL; Median IC50 (µg/ml) against viruses neutralized with an IC50 <50 µg/ml [9]: 0.64 µg/mL; Percent viruses neutralized with an IC50 <50 µg/ml [9]: 19%; Median IC50 (µg/ml) against all viruses [10]: 50 µg/mL; Median IC50 (µg/ml) against viruses neutralized with an IC50 <50 µg/ml [10]: 0.15 µg/mL; Percent viruses neutralized with an IC50 <50 µg/ml [10]: 39%
B2,50,0.18,40,0.52,13,23,40,50,3.54,40,2.6,60,50,0.56,13,50,0.85,36,50,0.52,Median IC50 (µg/ml) against viruses neutralized with an IC50 <50 µg/ml [4]: 0.08 µg/mL; Percent viruses neutralized with an IC50 <50 µg/ml [7]: 40%; Median IC50 (µg/ml) against all viruses [8]: 50 µg/mL; Median IC50 (µg/ml) against viruses neutralized with an IC50 <50 µg/ml [8]: 0.78 µg/mL; Percent viruses neutralized with an IC50 <50 µg/ml [8]: 41%; Median IC50 (µg/ml) against viruses neutralized with an IC50 <50 µg/ml [9]: 0.09 µg/mL; Percent viruses neutralized with an IC50 <50 µg/ml [9]: 38%; Median IC50 (µg/ml) against all viruses [10]: 50 µg/mL; Median IC50 (µg/ml) against viruses neutralized with an IC50 <50 µg/ml [10]: 0.07 µg/mL; Percent viruses neutralized with an IC50 <50 µg/ml [10]: 45%
B3,50,29.1,10,7.81,3,6,16,50,18.9,27,50,0,50,4.75,13,50,0.05,4,50,7.81,Percent viruses neutralized with an IC50 <50 µg/ml [7]: 18%; Median IC50 (µg/ml) against all viruses [8]: 50 µg/mL; Median IC50 (µg/ml) against viruses neutralized with an IC50 <50 µg/ml [8]: 7.52 µg/mL; Percent viruses neutralized with an IC50 <50 µg/ml [8]: 33%; Median IC50 (µg/ml) against all viruses [9]: 50 µg/mL; Percent viruses neutralized with an IC50 <50 µg/ml [9]: 4%; Median IC50 (µg/ml) against all viruses [10]: 50 µg/mL; Median IC50 (µg/ml) against viruses neutralized with an IC50 <50 µg/ml [10]: 13.2 µg/mL; Percent viruses neutralized with an IC50 <50 µg/ml [10]: 19%
